{"source": "patent US20190359693A1", "molecular_target": "hemagglutinin (HA) of influenza A/Mississippi/03/01 274H (H1N1) (influenza A virus)", "experiment": "cell-based or functional assay"}
{"binder": "MD3609 (Fc fusion) EVQLVESGGGLVQPGGSLRLSCAVSISIFDIYAMDWYRQAPGKQRDLVATSFRDGSTNYADSVKGRFTISRDNAKNTLYLQMNSLKPEDTAVYLCHVSLYRDPLGVAGGMGVYWGKGALVTVSSGGGGSGGGGSEVQLVESGGGLVQAGGSLKLSCAASGRTYAMGWFRQAPGKEREFVAHINALGTRTYYSDSVKGRFTISRDNAKNTEYLEMNNLKPEDTAVYYCTAQGQWRAAPVAVAAEYEFWGQGTQVTVSSGGGGSGGGGSEVQLVESGGGLVQPGGSLRLSCAATGFTLENKAIGWFRQTPGSEREGVLCISKSGSWTYYTDSMRGRFTISRDNAENTVYLQMDSLKPEDTAVYYCATTTAGGGLCWDGTTFSRLASSWGQGTQVTVSSGGGGSGGGGSEVQLVESGGGLVQPGGSLKLSCAASGFTFSTSWMYWLRQAPGKGLEWVSVINTDGGTYYADSVKDRFTISRDNAKDTLYLQMSSLKSEDTAVYYCAKDWGGPEPTRGQGTQVTVSSAAA[gap - human IgG1 Fc]", "values": [{"measurement": "Average neutralization titers", "result": 6.5, "unit": "nM"}]}
{"binder": "MD2642 (Fc fusion) EVQLVESGGGLVQPGGSLRLSCAVSISIFDIYAMDWYRQAPGKQRDLVATSFRDGSTNYADSVKGRFTISRDNAKNTLYLQMNSLKPEDTAVYLCHVSLYRDPLGVAGGMGVYWGKGALVTVSSGGGGSGGGGSEVQLVESGGGLVQAGGSLKLSCAASGRTYAMGWFRQAPGKEREFVAHINALGTRTYYSDSVKGRFTISRDNAKNTEYLEMNNLKPEDTAVYYCTAQGQWRAAPVAVAAEYEFWGQGTQVTVSS[gap - human IgG1 Fc]GGGGSGGGGSEVQLVESGGGLVQPGGSLRLSCAATGFTLENKAIGWFRQTPGSEREGVLCISKSGSWTYYTDSMRGRFTISRDNAENTVYLQMDSLKPEDTAVYYCATTTAGGGLCWDGTTFSRLASSWGQGTQVTVSSGGGGSGGGGSEVQLVESGGGLVQPGGSLKLSCAASGFTFSTSWMYWLRQAPGKGLEWVSVINTDGGTYYADSVKDRFTISRDNAKDTLYLQMSSLKSEDTAVYYCAKDWGGPEPTRGQGTQVTVSS", "values": [{"measurement": "Average neutralization titers", "result": 5.3, "unit": "nM"}]}
